Publication PMC11022072, “A secreted bacterial protein protects bacteria from cationic antimicrobial peptides by entrapment in phase-separated droplets” (2024)

Biological target: bovine lactoferrin (Lf) (bovine) (UniProt P24627)
Test: BLI; holo-Lf
Conditions: natural protein

In the case of “Moraxella bovis lactoferrin-binding protein B (LbpB), full-length (from UniProt H9KVH9 1-341)”, the Kd is reported as 86.7 nM.
